In patent publication US10633417B2 (priority 2013, dated 2020) one finds IC50 data, which are given here for 1 molecule.

By UniProt entry, the sequences of proteins in these tests, tags left out. Residues count along the entry.
UniProt Q9GZZ6, 25-450 limits assumed: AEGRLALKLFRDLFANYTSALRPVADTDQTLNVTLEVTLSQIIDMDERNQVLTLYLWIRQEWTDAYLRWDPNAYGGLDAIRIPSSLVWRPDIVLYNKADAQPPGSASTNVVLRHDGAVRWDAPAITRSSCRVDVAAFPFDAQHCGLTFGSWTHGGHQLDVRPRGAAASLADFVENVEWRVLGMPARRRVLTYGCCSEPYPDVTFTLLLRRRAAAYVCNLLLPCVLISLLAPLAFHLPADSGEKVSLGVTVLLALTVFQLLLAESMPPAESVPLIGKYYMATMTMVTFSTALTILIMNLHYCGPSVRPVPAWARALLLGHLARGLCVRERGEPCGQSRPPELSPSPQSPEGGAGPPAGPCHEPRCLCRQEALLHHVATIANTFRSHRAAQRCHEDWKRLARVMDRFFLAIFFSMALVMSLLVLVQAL
UniProt Q9UGM1, 26-479 limits assumed: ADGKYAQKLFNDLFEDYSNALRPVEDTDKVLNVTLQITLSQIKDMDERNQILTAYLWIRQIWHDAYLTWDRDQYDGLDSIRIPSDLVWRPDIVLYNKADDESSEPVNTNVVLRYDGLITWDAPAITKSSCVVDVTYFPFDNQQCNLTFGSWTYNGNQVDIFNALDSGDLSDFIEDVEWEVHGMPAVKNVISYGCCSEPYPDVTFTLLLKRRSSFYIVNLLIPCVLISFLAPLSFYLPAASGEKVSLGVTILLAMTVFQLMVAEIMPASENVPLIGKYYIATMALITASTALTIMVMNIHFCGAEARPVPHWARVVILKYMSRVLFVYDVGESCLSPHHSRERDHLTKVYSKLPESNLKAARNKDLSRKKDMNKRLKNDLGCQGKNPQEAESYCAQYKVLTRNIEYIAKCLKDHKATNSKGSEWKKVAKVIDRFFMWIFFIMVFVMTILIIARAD

The assay deals with human α9α10 nAChR (Homo sapiens, UniProt Q9GZZ6+Q9UGM1). Briefly: functional activity on human α9α10 nAChR expressed in Xenopus oocytes. The format is cell-based. The settings on record: read-out: Human α9α10 IC50, analogs with a C-terminal COOH.

In general, IC50 refers to the concentration at which inhibition is half-maximal.

Only a part of the results on these compounds is given; other tests are left out.

Turning to `C[C@@H](O)[C@@H]1NC(=O)[C@@H]2CSSC[C@@H](C(=O)N[C@@H](Cc3ccc(O)cc3)C(=O)O)NC(=O)[C@H](CCC(N)=O)NC(=O)[C@H](Cc3ccc(O)c(I)c3)NC(=O)[C@H](CCCNC(=N)N)NC(=O)[C@H](CSSC[C@H](NC(=O)CN)C(=O)N2)NC(=O)[C@H](CCCNC(=N)N)NC(=O)[C@@H]2CCCN2C(=O)[C@H](CC(=O)O)NC1=O` [Analog 11], the IC50 turned out to be 0.44 nM.
